Measured values taken from US4067986A, “Novel penicillanic acid” (Gist-Brocades N.V., priority 1974, dated 1978).
Values after ≈ are worked out from the molar mass of the structure shown.

Key:
[1] = tested on: Haemophilus suis A 2096; assay: MIC, micro serial dilution test; assay type: cell-based; conditions: micro serial dilution test (brackets)
[2] = tested on: Proteus mirabilis L 93; assay: MIC, agar serial dilution test; assay type: cell-based
[3] = tested on: Proteus rettgeri A 821; assay: MIC, agar serial dilution test; assay type: cell-based
[4] = tested on: Proteus mirabilis A 1200; assay: MIC, agar serial dilution test; assay type: cell-based
[5] = tested on: Diplococcus pneumoniae L 54; assay: MIC, agar serial dilution test; assay type: cell-based
[6] = tested on: Pseudomonas aeruginosa 2396; assay: MIC, agar serial dilution test; assay type: cell-based
[7] = tested on: Haemophilus suis A 2096; assay: MIC, agar serial dilution test; assay type: cell-based
[8] = tested on: Pseudomonas aeruginosa A 1058; assay: MIC, agar serial dilution test; assay type: cell-based
[9] = tested on: Streptococcus faecalis L 80; assay: MIC, agar serial dilution test; assay type: cell-based
[10] = tested on: Proteus mirabilis H 3; assay: MIC, agar serial dilution test; assay type: cell-based
[11] = tested on: Salmonella typhimurium R 172; assay: MIC, agar serial dilution test; assay type: cell-based
[12] = tested on: Klebsiella pneumoniae A 809; assay: MIC, agar serial dilution test; assay type: cell-based
[13] = tested on: Proteus mirabilis A 1200; assay: MIC, micro serial dilution test; conditions: micro serial dilution test (brackets)
[14] = tested on: Staphylococcus aur. A 355; assay: MIC, micro serial dilution test; conditions: micro serial dilution test (brackets), tables B-E
[15] = tested on: Pseudomonas aeruginosa A 1058; assay: MIC, micro serial dilution test; conditions: micro serial dilution test (brackets)
[16] = tested on: Staphylococcus aur. A 2001; assay: MIC, micro serial dilution test; conditions: micro serial dilution test (brackets), tables B-E
[17] = tested on: Staphylococcus aur. A 355; assay: MIC, agar serial dilution test; conditions: tables B-E
[18] = tested on: Salmonella dublin P 43; assay: MIC, agar serial dilution test
[19] = tested on: Escherichia coli U 20; assay: MIC, agar serial dilution test
[20] = tested on: Staphylococcus aur. A 2001; assay: MIC, agar serial dilution test; conditions: tables B-E
[21] = tested on: Salmon. typhimur. R 172; assay: ABA test, antibacterial activity in urine of mice; conditions: urine of 21/2 hr, disc 7 mm
[22] = tested on: Proteus rettgeri A 821; assay: ABA test, antibacterial activity in urine of mice; conditions: urine of 21/2 hr, disc 7 mm
[23] = tested on: Staphylococcus aur. A 355; assay: ABA test, antibacterial activity in urine of mice; conditions: urine of 21/2 hr, disc 7 mm
[24] = tested on: Proteus morganii 2241; assay: ABA test, antibacterial activity in urine of mice; conditions: urine of 21/2 hr, disc 7 mm
[25] = tested on: Escherichia coli U 20; assay: ABA test, antibacterial activity in urine of mice; conditions: urine of 21/2 hr, disc 7 mm
[26] = tested on: Proteus mirabil. H 3; assay: ABA test, antibacterial activity in urine of mice; conditions: urine of 21/2 hr, disc 7 mm
[27] = tested on: Proteus mirabil. L 93; assay: ABA test, antibacterial activity in urine of mice; conditions: urine of 21/2 hr, disc 7 mm
[28] = tested on: Klebsiella pneum. A 809; assay: ABA test, antibacterial activity in urine of mice; conditions: urine of 21/2 hr, disc 7 mm
[29] = tested on: Pseudomonas aerug. A 1058; assay: ABA test, antibacterial activity in urine of mice; conditions: urine of 21/2 hr, disc 7 mm
[30] = tested on: Staphylococcus aur. A 2001; assay: ABA test, antibacterial activity in urine of mice; conditions: urine of 21/2 hr, disc 7 mm
[31] = tested on: Pasteurella multocida A 723; assay: MIC, agar serial dilution test; assay type: cell-based
[32] = tested on: Brucella suis A 2126; assay: MIC, micro serial dilution test; conditions: micro serial dilution test (brackets)
[33] = tested on: Staphyl. aur A 321; assay: MIC, agar serial dilution test; conditions: tables B-D, column beside protection test
[34] = tested on: Diplococcus pneumoniae L 54; assay: MIC, micro serial dilution test; conditions: micro serial dilution test (brackets)
[35] = tables B-D, column beside protection test

CCOP(=O)(O)NC(=O)N[C@@H](C(=O)N[C@@H]1C(=O)N2[C@@H]1SC(C)(C)[C@@H]2C(=O)O)c1ccc(O)cc1
MIC [1]: 1.2 µg/mL (≈ 2.32 µM) | MIC ([2]; agar serial dilution): 0.12 µg/mL (≈ 0.232 µM) | MIC ([2]; tables B-E): 0.12 µg/mL (≈ 0.232 µM) | MIC ([3]; agar serial dilution): 0.06 µg/mL (≈ 0.116 µM) | MIC ([3]; tables B-E): 0.06 µg/mL (≈ 0.116 µM) | MIC ([4]; agar serial dilution): 0.75 µg/mL (≈ 1.45 µM) | MIC [4, 35]: 0.75 µg/mL (≈ 1.45 µM) | MIC [5]: 0.75 µg/mL (≈ 1.45 µM) | MIC [6]: 3 µg/mL (≈ 5.81 µM) | MIC [7]: 0.45 µg/mL (≈ 0.871 µM) | MIC ([8]; agar serial dilution): 3 µg/mL (≈ 5.81 µM) | MIC ([8]; tables B-E): 3 µg/mL (≈ 5.81 µM) | MIC [9]: 6 µg/mL (≈ 11.6 µM) | MIC ([10]; agar serial dilution): 0.5 µg/mL (≈ 0.968 µM) | MIC ([10]; tables B-E): 0.5 µg/mL (≈ 0.968 µM) | MIC ([11]; agar serial dilution): 3 µg/mL (≈ 5.81 µM) | MIC ([11]; tables B-E): 6 µg/mL (≈ 11.6 µM) | MIC ([12]; agar serial dilution): 100 µg/mL (≈ 194 µM) | MIC ([12]; tables B-E): > 100 µg/mL | MIC [13]: 0.3 µg/mL (≈ 0.581 µM) | MIC ([13]; tables B-D): 0.3 µg/mL (≈ 0.581 µM) | MIC [14]: 30 µg/mL (≈ 58.1 µM) | MIC [15]: 6 µg/mL (≈ 11.6 µM) | MIC ([15]; tables B-E): 6 µg/mL (≈ 11.6 µM) | MIC [16]: 11 µg/mL (≈ 21.3 µM) | MIC [17]: 100 µg/mL (≈ 194 µM) | MIC [18]: 3 µg/mL (≈ 5.81 µM) | MIC ([19]; agar serial dilution): 3 µg/mL (≈ 5.81 µM) | MIC ([19]; tables B-E): 3 µg/mL (≈ 5.81 µM) | MIC [20]: 25 µg/mL (≈ 48.4 µM) | ABA, inhibition zone of urine ([21]; 100 mg/kg i.p.): 26 mm | ABA, inhibition zone of urine ([21]; 100 mg/kg or.): 11 mm | ABA, inhibition zone of urine ([22]; 100 mg/kg i.p.): 31 mm | ABA, inhibition zone of urine ([22]; 100 mg/kg or.): 18 mm | ABA, inhibition zone of urine ([23]; 100 mg/kg i.p.): 11 mm | ABA, inhibition zone of urine ([23]; 100 mg/kg or.): 7 mm | ABA, inhibition zone of urine ([24]; 100 mg/kg i.p.): 7 mm | ABA, inhibition zone of urine ([24]; 100 mg/kg or.): 7 mm | ABA, inhibition zone of urine ([25]; 100 mg/kg i.p.): 24 mm | ABA, inhibition zone of urine ([25]; 100 mg/kg or.): 10 mm | ABA, inhibition zone of urine ([26]; 100 mg/kg i.p.): 26 mm | ABA, inhibition zone of urine ([26]; 100 mg/kg or.): 13 mm | ABA, inhibition zone of urine ([27]; 100 mg/kg i.p.): 31 mm | ABA, inhibition zone of urine ([27]; 100 mg/kg or.): 16 mm | ABA, inhibition zone of urine ([28]; 100 mg/kg i.p.): 7 mm | ABA, inhibition zone of urine ([28]; 100 mg/kg or.): 7 mm | ABA, inhibition zone of urine ([29]; 100 mg/kg i.p.): 19 mm | ABA, inhibition zone of urine ([29]; 100 mg/kg or.): 8 mm | ABA, inhibition zone of urine ([30]; 100 mg/kg i.p.): 22 mm | ABA, inhibition zone of urine ([30]; 100 mg/kg or.): 13 mm

COP(=O)(O)NC(=O)N[C@@H](C(=O)N[C@@H]1C(=O)N2[C@@H]1SC(C)(C)[C@@H]2C(=O)O)c1ccc(O)cc1
MIC [1]: 1.2 µg/mL (≈ 2.39 µM) | MIC ([2]; agar serial dilution): 0.5 µg/mL (≈ 0.995 µM) | MIC ([2]; tables B-E): 0.5 µg/mL (≈ 0.995 µM) | MIC ([4]; agar serial dilution): 0.75 µg/mL (≈ 1.49 µM) | MIC [4, 35]: 0.75 µg/mL (≈ 1.49 µM) | MIC [5]: 6 µg/mL (≈ 11.9 µM) | MIC [31]: 3 µg/mL (≈ 5.97 µM) | MIC ([8]; agar serial dilution): 3 µg/mL (≈ 5.97 µM) | MIC ([8]; tables B-E): 3 µg/mL (≈ 5.97 µM) | MIC [9]: 6 µg/mL (≈ 11.9 µM) | MIC ([11]; agar serial dilution): 6 µg/mL (≈ 11.9 µM) | MIC ([11]; tables B-E): 6 µg/mL (≈ 11.9 µM) | MIC ([12]; agar serial dilution): 100 µg/mL (≈ 199 µM) | MIC ([12]; tables B-E): 100 µg/mL (≈ 199 µM) | MIC ([13]; tables B-D): 0.45 µg/mL (≈ 0.896 µM) | MIC [14]: 60 µg/mL (≈ 119 µM) | MIC [15]: 4 µg/mL (≈ 7.96 µM) | MIC ([15]; tables B-E): 4 µg/mL (≈ 7.96 µM) | MIC [32]: 1.2 µg/mL (≈ 2.39 µM) | MIC [17]: 100 µg/mL (≈ 199 µM) | MIC [18]: 6 µg/mL (≈ 11.9 µM) | MIC [33]: 3 µg/mL (≈ 5.97 µM) | ABA, inhibition zone of urine ([21]; 100 mg/kg i.p.): 25 mm | ABA, inhibition zone of urine ([21]; 100 mg/kg or.): 16 mm | ABA, inhibition zone of urine ([22]; 100 mg/kg i.p.): 26 mm | ABA, inhibition zone of urine ([22]; 100 mg/kg or.): 16 mm | ABA, inhibition zone of urine ([23]; 100 mg/kg i.p.): 12 mm | ABA, inhibition zone of urine ([23]; 100 mg/kg or.): 7 mm | ABA, inhibition zone of urine ([24]; 100 mg/kg i.p.): 7 mm | ABA, inhibition zone of urine ([24]; 100 mg/kg or.): 7 mm | ABA, inhibition zone of urine ([25]; 100 mg/kg i.p.): 22 mm | ABA, inhibition zone of urine ([25]; 100 mg/kg or.): 10 mm | ABA, inhibition zone of urine ([26]; 100 mg/kg i.p.): 28 mm | ABA, inhibition zone of urine ([26]; 100 mg/kg or.): 14 mm | ABA, inhibition zone of urine ([27]; 100 mg/kg i.p.): 32 mm | ABA, inhibition zone of urine ([27]; 100 mg/kg or.): 17 mm | ABA, inhibition zone of urine ([28]; 100 mg/kg i.p.): 7 mm | ABA, inhibition zone of urine ([28]; 100 mg/kg or.): 7 mm | ABA, inhibition zone of urine ([29]; 100 mg/kg i.p.): 19 mm | ABA, inhibition zone of urine ([29]; 100 mg/kg or.): 7 mm | ABA, inhibition zone of urine ([30]; 100 mg/kg i.p.): 32 mm | ABA, inhibition zone of urine ([30]; 100 mg/kg or.): 26 mm

CC1(C)S[C@@H]2[C@H](NC(=O)[C@H](NC(=O)NP(=O)(O)O)c3ccc(O)cc3)C(=O)N2[C@H]1C(=O)O
MIC [1]: 0.9 µg/mL (≈ 1.84 µM) | MIC ([3]; agar serial dilution): 0.5 µg/mL (≈ 1.02 µM) | MIC ([4]; agar serial dilution): 3 µg/mL (≈ 6.14 µM) | MIC ([8]; agar serial dilution): 3 µg/mL (≈ 6.14 µM) | MIC ([8]; tables B-E): 3 µg/mL (≈ 6.14 µM) | MIC ([12]; agar serial dilution): > 100 µg/mL | MIC ([12]; tables B-E): > 100 µg/mL | MIC [13]: 1.2 µg/mL (≈ 2.46 µM) | MIC [14]: 60 µg/mL (≈ 123 µM) | MIC [34]: 12 µg/mL (≈ 24.6 µM) | MIC [15]: 3.7 µg/mL (≈ 7.58 µM) | MIC ([15]; tables B-E): 3.7 µg/mL (≈ 7.58 µM) | MIC [32]: 0.9 µg/mL (≈ 1.84 µM) | MIC [17]: 100 µg/mL (≈ 205 µM) | MIC [18]: 6 µg/mL (≈ 12.3 µM) | MIC [20]: 50 µg/mL (≈ 102 µM) | ABA, inhibition zone of urine ([21]; 100 mg/kg i.p.): 33 mm | ABA, inhibition zone of urine ([21]; 100 mg/kg or.): 16 mm | ABA, inhibition zone of urine ([22]; 100 mg/kg i.p.): 24 mm | ABA, inhibition zone of urine ([22]; 100 mg/kg or.): 8 mm | ABA, inhibition zone of urine ([24]; 100 mg/kg i.p.): 7 mm | ABA, inhibition zone of urine ([24]; 100 mg/kg or.): 7 mm | ABA, inhibition zone of urine ([25]; 100 mg/kg i.p.): 28 mm | ABA, inhibition zone of urine ([25]; 100 mg/kg or.): 7 mm | ABA, inhibition zone of urine ([26]; 100 mg/kg i.p.): 32 mm | ABA, inhibition zone of urine ([26]; 100 mg/kg or.): 7 mm | ABA, inhibition zone of urine ([27]; 100 mg/kg i.p.): 36 mm | ABA, inhibition zone of urine ([27]; 100 mg/kg or.): 8 mm | ABA, inhibition zone of urine ([28]; 100 mg/kg i.p.): 7 mm | ABA, inhibition zone of urine ([28]; 100 mg/kg or.): 7 mm | ABA, inhibition zone of urine ([29]; 100 mg/kg i.p.): 20 mm | ABA, inhibition zone of urine ([29]; 100 mg/kg or.): 7 mm
